Test results: publication PMC9597602, “Metal Complexes as Antifungals? From a Crowd-Sourced Compound Library to the First In Vivo Experiments” (JACS Au, 2022)
For some of these results: The source's definition of the ratio is not given here.

How the values were obtained:
[1] = test system: human red blood cells; type: cell-based; conditions: Therapeutic Index with respect to haemolysis against the best MIC measured
Experimental: Human whole blood (Australian Red Cross) was washed three times with 3 vol of 0.9% NaCl and resuspended in a concentration of 0.5 × 10^8 cells/mL, determined by a manual cell count in a Neubauer hemocytometer. […] After incubation, the plates were centrifuged at 1000g for 10 min to pellet cells and debris; 25 μL of the supernatant was then transferred to reading plates (384-well, polystyrene plated (PS), Corning CLS3680), with hemolysis determined by measuring the supernatant absorbance at […] (OD405) using cells without inhibitors as negative control and cells with 1% Triton X-100 (Sigma T8787) as positive control. […] Melittin (Sigma M2272) was used as internal control on each plate.

[2] = Therapeutic index against the best MIC measured; conditions: for Minimum TI: lowest TI obtained in either TI_CC50 or TI_HC10; for therapeutic index: Table S7

Row | SMILES | TI_HC10 [1] | Minimum TI [2] | therapeutic index [2]
1 | CS(=O)(=O)[O][Pd][c]1ccccc1-c1ccccc1N.CS(=O)(=O)[O][Pd][c]1ccccc1-c1ccccc1N [Pd2] | 10-130 | 10 | 
2 | Cc1c(C)c(C)[c-](C)c1C.Cc1c(C)c(C)[c-](C)c1C.[Cl-].[Cl-].[Cl-].[Cl-].[Rh+3].[Rh+3] [Rh1] | 1-9 | 1 | 
3 | C1=CCCC=CCC1.[Cl][Pd][Cl] [Pd1] | 13 | 13 | 13
4 | CC(C)C([O][Pt][Cl])C1=CCCC=CCC1 (stereo not shown) [Pt4] | 128 | 128 | 
5 | C1=CCCC=CCC1.[I][Pt][I] [Pt2] | 128 | 128 | 
6 | c1cnc([S][Au][PH](c2ccco2)(c2ccco2)c2ccco2)nc1 [Au1] | 3746-8333 | 5 | 
7 | CC(=NN=C(N)[S-])C(C)=NN=C(N)[S-].O=[N+]([O-])[O-].[Co+3].c1c[nH]cn1.c1c[nH]cn1 [Co1] | 256 | 256 | 
8 | Cc1ccc2ccc3ccc(C)nc3c2n1.Cc1ccc2ccc3ccc(C)nc3c2n1.O=C([O][Eu]([O]C(=O)c1ccccc1F)[O]C(=O)c1ccccc1F)c1ccccc1F [Eu1] | 33,333 | 33,333 | 33,333
9 | Cc1c(C)c(-c2ccc(-c3ccccc3)cc2)[c-](C)c1C.Cc1ccccc1NC1=[NH+][Ir]([Cl])[NH]C(NS(=O)(=O)c2cccc3c(N(C)C)cccc23)=N1 [Ir3] | 3383 | 3383 | 
10 | Cc1c(C)c(-c2ccc(-c3ccccc3)cc2)[c-](C)c1C.Cc1ccccc1NC1=[NH+][Ir]([Cl])[NH]C(NS(=O)(=O)c2ccc([N+](=O)[O-])cc2)=N1 [Ir2] | 3154 | 2600 | 
11 | COc1ccc(/C=C/C2=NN(c3ccc(C(=O)[O][Ag])cc3)C(c3ccc(OC)c(OC)c3)C2)cc1OC.COc1ccc(/C=C/C2=NN(c3ccc(C(=O)[O][Ag])cc3)C(c3ccc(OC)c(OC)c3)C2)cc1OC (racemic) [Ag1, (Ε)-1-(4-Carboxyphenyl)-5-(3,4-dimethoxyphenyl)-3-(3,4-dimethoxystyryl)-2-pyrazoline silver(I) complex] | 2117-25,600 | 2117 | 
12 | C1=CCCC=CCC1.[Cl][Pt][Cl] [Pt1] | 64 | 64 | 
13 | O=C([O][Ag])c1ccc(N2N=C(/C=C/C=C/c3ccccc3)CC2/C=C/c2ccccc2)cc1.O=C([O][Ag])c1ccc(N2N=C(/C=C/C=C/c3ccccc3)CC2/C=C/c2ccccc2)cc1 (racemic) [Ag2, 1-(4-Carboxyphenyl)-3-{(1E,3E)-4-phenylbuta-1,3-dien-1-yl}-5-{(E)-styryl}-2-pyrazoline silver(I) complex] | 33,333 | 933 | 
